Experimental data reported in US20260069689A1, “ANTI-SARS-COV-2-SPIKE GLYCOPROTEIN ANTIBODIES AND ANTIGEN-BINDING FRAGMENTS” (Regeneron, published 2026).
Positions count from the first letter of the chain named.

B1: mAb14256 (antibody)
heavy: not shown
light: QSVLTQPPSVSGAPGQRVTISCTGSSSNIGTHYDVHWYQQLPGTAPKLLIYGNSNRPSGVPDRFSGSKSGTSASLAITGLQAEDEADYYCQSFDNSLTAPYVFGTGTKVTVLGQPKAAPSVTLFPPSSEELQANKATLVCLISDFYPGAVTVAWKADSSPVKAGVETTTPSKQSNNKYAASSYLSLTPEQWKSHRSYSCQVTHEGSTVEKTVAPTECS
B2: mAb14290 (antibody, V domains shown)
VH: QVQLVQSGAEVKKPGSSVKVSCKASGGSFSNYAISWVRQAPGQGLEWMGGIIPFFGTTNYAQKFQGRLTITADESTSTFYMELSSLGSEDTAVYYCAAGYSSGWYPSWFDPWGQGTLVTVSS
VL: EIVLTQSPGTLSLSPGERATLSCRASQSVNNNYLAWYQQKPGQTPRLLIYGASSRATGIPDRFSGSGSGTDFTLTITRLEPEDFAVYHCQQYGRSPTTFGQGTRLEIKR
B3: mAb14291 (antibody, V domains shown)
VH: EVQLVQSGAEVKKPGSTMKISCKISGYIFSDYYMHWVQQAPGKGLEWMGLVDPEDGETRYAEKFQGRVTITADTSTDTAYMELSSLRFEDTAVYYCATVGGSSGPWGETLFDHWGQGSLVTVSS
VL: DIVMTQSPLSLPVTPGEPASISCRSSQSLLHSNGYNYINWYLQKPGQSPQLLMYLGSNRASGVPDRFSGSGSGTDSTLKISRVEAEDAGVYYCMQTRQTPYTFGQGTKLEIKR
B4: mAb14292 (antibody, V domains shown)
VH: EVQLVESGGGLVQPGGSLRLSCVASGFAFSTYEMNWVRQAPGKGLEWVSYISSSGSTIYYADSVKGRLTISRDNVKNSLYLQMNSLRVEDTAIYYCARDAIRNNDILTDPATFDPWGQGTLVTVSS
VL: not shown
B5: mAb14293 (antibody, V domains shown)
VH: QVQLVQSGAEVKKPGASVKVSCKASGYTFTNYYMHWVRQAPGQGLEWMGIINPSGGSTSYAQKFLGRVTMTRDTSTTTVYMELSSLRSEDTAVYFCARVENLPTKWDLLRKGFESGMDVWGQGTTVTVSS
VL: EIVMTQSPATVSVSPGERATLSCRASQSVSSNLAWYQQKPGQAPRLLIYGASTRATGIPASFSGSGSGTEFTLTISSLQSEDFAVYYCQQYNNWPITFGPGTKVDIKR
B6: mAb14294 (antibody, V domains shown)
VH: EVQLVESGGGLVQPGGSLRLSCAASGFTFSNHWMDWVRQAPGKGLVWVSRINSDGSSTDYADSVRGRFTMSRDNAKNTLYLQMSSLRAEDTAVYYCAREGMIFGAVIIPGWYFDLWGRGALVTVSS
VL: EIVLTQSPGTLSLSPGERATLSCRASQSVSSSQLAWYQQKPGQAPRLLIYGASSRATGIPDRFSGSGSGTDFTLTISRLEPEDFAVYYCQQYDSFGQGTKLEIKR
B7: mAb14295 (antibody, V domains shown)
VH: QLQLQESGPGLVKPSETLSLTCTVSGGSISSSGHYWGWIRQSPGKGLDWIGSIYYSGSTYYNPSLKSRVTISVDTSKNQFSLKLNSVTAADTAVYFCARLEAYCSGDTCHYFYGLDVWGQGTTVTVSS
VL: DIQMTQSPSSLSASVGDRVTITCRASQSINTYLNWYQQKPGKAPNLLIDGASSLQSGVPSRFSGSGSGTDFILTISSLRPEDFATYYCQQSYSIPLTFGGGTRVEIKR
B8: mAb14312 (antibody)
heavy: not shown
light: QSVLTQPPSVSGAPGQRVTISCTGSSSNIGAGDDVHWYQQLPGTAPKLLIYGNSNRPSGVPDRFSGSKSGTSASLAITGLQAEDEADYYCQSYDSSLSGSVVFGGGTKLTVLGQPKAAPSVTLFPPSSEELQANKATLVCLISDFYPGAVTVAWKADSSPVKAGVETTTPSKQSNNKYAASSYLSLTPEQWKSHRSYSCQVTHEGSTVEKTVAPTECS
B9: mAb14313 (antibody, V domains shown)
VH: EVQLVESGGGLVQPGRSLRLSCVASGFTFDDSAMHWVRQPPGKGLEWVSGISWNSGIIGYAESVKGRFIISRDNAKNSLFLHMRGLRPEDTAVYYCARDRLELSYYYYGMDVWGQGTTVTVSS
VL: QSVLTQPPSASGTPGQRVTISCSGSSSNIGSNTVNWYQQFPGTAPRLLIYSNDQRPSGIPDRFSGSKSGTSASLAISGLQSEDEADYYCSTWDDSLNGAVFGGGTQLTVLG
B10: mAb14316 (antibody, V domains shown)
VH: QVQLVQSGAEVKKPGSSVKVSCKAPGGTFSTYAINWVRQAPGQGLEWMGRIVPFFGTTNYAQKFQGRVTITADESTSTAYMELSSLTSEDTAVYYCARGPRPFGELLYWGQGTLVTVSS
VL: DIQMTQSPSSLSASVGDRVTITCQASQDISNYLNWYQQKPGKAPKLLIYDASNLETGVPSRFSGSGSGTDFTFTISSLQAEDIATYYCQQYDNLLFTFGPGTKVDIKR
B11: mAb15156 (antibody)
heavy: not shown
light: QSVLTQPPSASGTPGQRVTISCSGSRSNIGINTVNWYQQFPGTALNLLIFSDNQRPSGVPDRFSGSKSGTSASLAISGLQSEDEADYYCAAWDDSLNGPDWVFGGGTKLTVLGQPKAAPSVTLFPPSSEELQANKATLVCLISDFYPGAVTVAWKADSSPVKAGVETTTPSKQSNNKYAASSYLSLTPEQWKSHRSYSCQVTHEGSTVEKTVAPTECS
B12: mAb15157 (antibody, V domains shown)
VH: EVQLVESGGALVQPGGSLRLSCAASGFPFTIYAMTWVRQAPGKGLEWVSVITGSGDSTYYADSVKGRFTISRDNSKNTLYLQMNSLRAEDTAVYYCVKTGEGFFYYYYGMDVWGQGTTVTVSS
VL: QSVLTQPPSVSAAPGQKVTISCSGSSSNIGNSYISWYQQLPGTAPKLLIYVNNKRPSGIPDRFSGSKSGTSATLGITGLQTGDEADYYCGTWDSSLSAGVFGSGTKVTVLG
B13: mAb15163 (antibody, V domains shown)
VH: EVQLVETGGGLIQPGESLRLSCAASGFIVSTNYMNWVRQAPGKGLEWVSVIYRGGSTYYADSVKGRFTISRDNSKNTLFLQMNSLRAEDTAVYYCARGHEDFDYDTPASGAFDIWGQGTMVTVSS
VL: QSALTQPPSASGSPGQSVTISCTGTSSDVGGHNYVSWYQQHPGKAPKVMIYEVSKRPSGVPDRFSGSKSGNTASLTVSGLQAEDEADYYCSSYAGSNKFVFGTGTKVTVLG
B14: mAb15164 (antibody)
heavy: not shown
light: QSALTQPASVSGSPGQSITISCTGTSSDFGNYNIVSWYQQHPGQAPKVMIYEGNKRPSGVSNRFSGSKSGHTASLTISGLQAEDEADYYCSSYAGSSTWVFGGGTKLTVLGQPKAAPSVTLFPPSSEELQANKATLVCLISDFYPGAVTVAWKADSSPVKAGVETTTPSKQSNNKYAASSYLSLTPEQWKSHRSYSCQVTHEGSTVEKTVAPTECS
B15: mAb15165 (antibody)
heavy: not shown
light: B14 light with N31S, I34L, Q44K, V48L, N62I, H71N
B16: mAb15166 (antibody, V domains shown)
VH: EVQLVESGGGLVQPGGSLRLSCAASGFTVTSNYMSWVRQAPGKGLEWVSAIYSGESTYYADSVKGRFTISRDSSKNTLYLQMNSLRVEDTAVYYCASIHDYSNYVGGFDPWGQGTLVTVSS
VL: QSALTQPASVSGSPGQSITISCTGPSSDFGSYNLVSWYQQHPGKAPKLMIYEGTKRPSGVSNRFSGSKSGNTASLTISGLQAEDEADYYCSSYAGSSTWVFGGGTKLTVLG
B17: mAb15167 (antibody, V domains shown)
VH: QVQLQESGPGLVKPSETLSLTCTVSGGSISGYYWSWIRQPPGKGLEWIGYIYYSGSTNYNPSLKSRVTMSVDTSKNQFSLKLSSVTAADTAVYYCARYPLYSESSGYHFDYWGHGTLVTVSS
VL: B16 VL with P25T, F29V, H41D, I50L, G53D, T54S, S96R

biological target: T1, SARS-CoV-2 spike protein, wild-type (Wuhan-Hu-1) or D614G control (SARS-CoV-2); assay: cell-based or functional assay

Row | Binder | IC50 (pseudoparticle neutralization) [nM]
1 | B1 | 0.0547
2 | B2 | 1.2
3 | B3 | 0.123
4 | B4 | 0.0577
5 | B5 | 1.1
6 | B6 | 0.0567
7 | B7 | 0.195
8 | B8 | 0.0466
9 | B9 | 0.272
10 | B10 | 0.129
11 | B11 | 0.0209
12 | B12 | 0.0372
13 | B13 | 0.0628
14 | B14 | 0.0248
15 | B15 | 0.0296
16 | B16 | 0.0161
17 | B17 | 0.0295

biological target: T1, SARS-CoV-2 spike protein, wild-type …; assay: cell-based or functional assay; remark: another data set of the same source

Row | Binder | IC50 (pseudoparticle neutralization) [nM]
18 | B1 | 0.0261
